Among the data in patent US20230285545A1 are Kd values, retold here.

pKd: −log10 of the molar value.

This assay concerns the target Human ACE2-Fc (human) (UniProt Q9BYF1).

In general, pKd refers to the Kd on a negative log10 scale, so that one unit is a factor of ten. A lower pKd goes with a large Kd. For the substance “recombinant receptor-binding domain (RBD) protein of SARS-CoV-2 spike protein (ligand)”, the pKd is 8.81.
